# Laboratory results from article PMC10088716.
# Values joined by “and” are separate entries in the source; they are usually repeats but may differ in a detail not shown here. Identical values can stand only once.
# Target: SARS-CoV-2 RBD-His, wild type (tPA-RBD-his) (SARS-CoV-2)
# Experiment: SPR
substance,measurement,value
ACE2-hFc (Fc fusion),Kd,0.0432 µM and 0.0996 µM
